Measured values from several laboratories, pooled; numbers as filed in NIAID ChemDB.

Shared fields: enzyme or target tests; species: HIV-1; target: Reverse transcriptase; measure: IC50

ICn: concentration for n% inhibition. Lines come from different laboratories, so protocols vary. An empty or dashed field is not shown. Two numbers with a dash give a range or band.

{"structure": "CC(C)c1cnc(C2C=C(c3ccccc3[N+](=O)[O-])N=C(N)S2)cn1", "method": "RT activity / ELISA / absorbance", "result": "8.14 µM"}
{"structure": "CCN1c2ncc(CCOc3cccc4c3COC(=O)N4)cc2C(=O)N(C)c2cccnc21", "strain or isolate": "IIIB", "method": "nucleotide incorporation / radiometric", "result": "<0.05 µM"}
{"structure": "COc1cc2c(cc1N)CN(c1nn3c(C4CC4)nnc3c3ccccc13)CC2", "strain or isolate": "IIIB", "method": "RT activity / fluorescence", "result": "3.79 µM"}
{"structure": "CCN1c2ncc(CCOc3cccc4c3CNC(=O)N4)cc2C(=O)N(C)c2cccnc21", "strain or isolate": "IIIB", "changes": "RT-K103N Y181C", "method": "nucleotide incorporation / radiometric", "result": ">0.1 µM"}
{"structure": "CCN1c2ncc(CCOc3ccc(-c4ccc(C(=O)O)o4)cc3)cc2C(=O)N(C)c2cccnc21", "strain or isolate": "IIIB", "method": "nucleotide incorporation / radiometric", "result": "<0.05 µM"}
{"structure": "CC(C)=CCC/C(C)=C/CC/C(C)=C/CC/C(C)=C/CC/C(C)=C/CC/C(C)=C/Cc1cc(O)ccc1O", "method": "nucleotide incorporation", "result": "2.7–2.8 µM"}
{"structure": "CCN1c2ncc(CCOc3cccc4c3CNC(=O)O4)cc2C(=O)N(C)c2cccnc21", "strain or isolate": "IIIB", "method": "nucleotide incorporation / radiometric", "result": "<0.05 µM"}
{"structure": "CC(C)c1cnc(C2C=C(c3ccccc3Cl)N=C(N)S2)cn1", "method": "RT activity / ELISA / absorbance", "result": "31.44 µM"}
{"structure": "Cc1cn([C@H]2CC[C@@H](COP(=O)(O)OP(=O)(O)OP(=O)(O)O)O2)c(=O)[nH]c1=O", "result": "0.0081 µM"}
{"structure": "CCc1ccc(-n2c(Br)nnc2SCC(=O)Nc2ccc(C(=O)O)cc2Cl)c2ccccc12", "changes": "RT-Y181C", "method": "nucleotide incorporation / radiometric", "result": "<0.05 µM"}
{"structure": "CS(=O)(=O)c1ccc(NC(=O)COc2ccc(Cl)c(Oc3cc(Cl)cc(C#N)c3)c2)c(Cl)c1", "method": "nucleotide incorporation / radiometric", "result": "<20 µM"}
{"structure": "CCc1cc(CCc2nc3ccccc3o2)c(=O)[nH]c1C", "changes": "RT-K103N", "method": "nucleotide incorporation", "result": "0.6201 µM"}
{"structure": "Nc1ncnc2c1ncn2[C@@H]1O[C@H](COP(=O)([O-])O[C@@H]2C[C@@H](COP(=O)([O-])O)O[C@H]2n2cnc3c(N)ncnc32)[C@@H](O)[C@H]1OP(=O)([O-])OC[C@@H]1C[C@@H](O)[C@H](n2cnc3c(N)ncnc32)O1", "strain or isolate": "IIIB", "result": ">10 µM"}
{"structure": "N#Cc1cc(Cl)cc(Oc2cc(OCc3nc4ccccc4s3)ccc2Cl)c1", "method": "nucleotide incorporation / radiometric", "result": "<20 µM"}
{"structure": "c1coc(-c2nnc3c4ccccc4c(N4CCc5ccccc5C4)nn23)c1", "strain or isolate": "IIIB", "method": "RT activity / fluorescence", "result": "0.53 µM"}
{"structure": "CC(C)c1cnc(C2C=C(c3cccc(O)c3)N=C(N)S2)cn1", "method": "RT activity / ELISA / absorbance", "result": "72.63 µM"}
{"structure": "N#Cc1cc(Cl)cc(Oc2cc(OCc3nc4cccc(Cl)c4o3)ccc2Cl)c1", "method": "nucleotide incorporation / radiometric", "result": "<20 µM"}
{"structure": "Cc1ccc(C2=CC(c3cnc(C(C)C)cn3)SC(N)=N2)cc1", "method": "RT activity / ELISA / absorbance", "result": ">100 µM"}
{"structure": "Cc1nnc2c3c(c(N4CCc5ccccc5C4)nn12)C1CCC3CC1", "strain or isolate": "IIIB", "method": "RT activity / fluorescence", "result": "6.59 µM"}
{"structure": "CCc1ccc(-n2c(Br)nnc2SCC(=O)Nc2ccc(C(=O)N[C@H](C(=O)OC)C(C)C)cc2Cl)c2ccccc12", "method": "nucleotide incorporation / radiometric", "result": "0.05–0.1 µM"}
{"structure": "CCN1c2ncc(CCOc3ccc(-c4ccc(CCC(=O)O)o4)cc3C)cc2C(=O)N(C)c2cccnc21", "strain or isolate": "IIIB", "changes": "RT-K103N Y181C", "method": "nucleotide incorporation / radiometric", "result": ">0.1 µM"}
{"structure": "Cc1ccc(CS(=O)(=O)n2c(=O)[nH]c3ccc(Cl)cc32)cc1", "method": "RT activity / fluorescence", "result": "0.79 µM"}
{"structure": "COc1cc2c(cc1OC)CN(c1nn3c(C(F)F)nnc3c3ccccc13)CC2", "strain or isolate": "98US_MSC5016", "method": "RT activity / fluorescence", "result": "3.41 µM"}
{"structure": "Cc1cc(=O)c2c(O)c3c(O)cc(O)c4c5c(O)cc(O)c6c(O)c7c(=O)cc(C)c8c1c2c(c34)c(c65)c78", "method": "RT activity", "result": "108 µg/mL"}
{"structure": "Cc1cn([C@H]2C[C@H](F)C(COP(=O)([O-])OP(=O)([O-])OC[C@H]3O[C@@H](n4cc(C)c(=S)[nH]c4=O)C[C@@H]3F)O2)c(=O)[nH]c1=S", "method": "RT activity / ELISA", "result": "0.9 µM"}
{"structure": "CC(C)c1nnc2c3ccccc3c(N3CCc4ccccc4C3)nn12", "strain or isolate": "IIIB", "method": "RT activity / fluorescence", "result": "4.97 µM"}
{"structure": "Nc1ncnc2c1ncn2[C@@H]1O[C@H](COP(=O)([O-])O[C@@H]2C[C@@H](COP(=O)([O-])O[C@@H]3C[C@@H](COP(=O)([O-])O)O[C@H]3n3cnc4c(N)ncnc43)O[C@H]2n2cnc3c(N)ncnc32)C[C@H]1O", "strain or isolate": "IIIB", "result": ">10 µM"}
{"structure": "NS(=O)(=O)c1ccc(NC(=O)COc2cccc(Cc3ccccc3)c2)c(Cl)c1", "method": "nucleotide incorporation / radiometric", "result": "<20 µM"}
{"structure": "O=C(O)CP(=O)(O)O", "result": ">500 µM"}
{"structure": "CCN1c2ncc(CCOc3cccc4c3C(C)C(=O)N4C)cc2C(=O)N(C)c2cccnc21", "strain or isolate": "IIIB", "changes": "RT-K103N Y181C", "method": "nucleotide incorporation / radiometric", "result": ">0.1 µM"}
{"structure": "CCc1ccc(-n2c(Br)nnc2SCC(=O)Nc2ccc(C(=O)NCC(=O)OC)cc2Cl)c2ccccc12", "changes": "RT-Y181C", "method": "nucleotide incorporation / radiometric", "result": "<0.05 µM"}
{"structure": "Nc1ncnc2c1ncn2[C@@H]1O[C@H](COP(=O)([O-])O)[C@@H](O)[C@H]1OP(=O)([O-])OC[C@@H]1C[C@@H](OP(=O)([O-])OC[C@@H]2C[C@@H](O)[C@H](n3cnc4c(N)ncnc43)O2)[C@H](n2cnc3c(N)ncnc32)O1", "strain or isolate": "IIIB", "result": ">10 µM"}
{"structure": "CC(=O)O[C@]1(C)/C=C/C[C@@H](C)/C=C/[C@@]2(C)CC[C@@H](C(C)(C)O)[C@@H]2[C@@H](O)C1", "method": "nucleotide incorporation / radiometric", "result": ">40 µM"}
{"structure": "O=C(CSc1nnc(C(F)F)n1-c1ccc(C2CC2)c2ccccc12)Nc1ccc(C(=O)O)cc1Cl", "changes": "RT-Y181C", "method": "nucleotide incorporation / radiometric", "result": "<0.05 µM"}
{"structure": "Nc1ccn([C@@H]2CS[C@H](COP(=O)(O)OP(=O)(O)OP(=O)(O)O)O2)c(=O)n1", "method": "nucleotide incorporation", "result": "0.3 µM"}
{"structure": "CCN1c2ncc(CCOc3cccc4c3n(C)c(=O)n4C)cc2C(=O)N(C)c2cccnc21", "strain or isolate": "IIIB", "method": "nucleotide incorporation / radiometric", "result": "0.05–0.1 µM"}
{"structure": "CC(C)(O/N=C(/C(=O)N[C@@H]1C(=O)N2C(C(=O)[O-])=C(C[n+]3ccccc3)CS[C@H]12)c1csc(N)n1)C(=O)O", "method": "radiometric", "result": ">100 µg/mL"}
{"structure": "COC(=O)[C@H](CC(C)C)NC(=O)c1ccc(NC(=O)CSc2nnc(Br)n2-c2ccc(C3CC3)c3ccccc23)c(Cl)c1", "changes": "RT-Y188L", "method": "nucleotide incorporation / radiometric", "result": "0.05–0.1 µM"}
{"structure": "CCN1c2ncc(CCOc3ccc(-c4ccc(F)c(CC(=O)O)c4)cc3C)cc2C(=O)N(C)c2cccnc21", "strain or isolate": "IIIB", "method": "nucleotide incorporation / radiometric", "result": "<0.05 µM"}
{"structure": "CCc1ccc(-n2c(CF)nnc2SCC(=O)Nc2ccc(C(=O)O)cc2Cl)c2ccccc12", "changes": "RT-Y188L", "method": "nucleotide incorporation / radiometric", "result": ">0.1 µM"}
{"structure": "Nc1ncnc2c1ncn2[C@H]1CC[C@@H](COP(=O)(O)OP(=O)(O)OP(=O)(O)O)O1", "method": "nucleotide incorporation", "result": ">100 µM"}
{"structure": "CCN1c2ncc(CCOc3ccc4c(c3)CN(C)C(=O)N4C)cc2C(=O)N(C)c2cccnc21", "strain or isolate": "IIIB", "method": "nucleotide incorporation / radiometric", "result": "<0.05 µM"}
{"structure": "CC[C@H](C)[C@H](NC(=O)c1ccc(NC(=O)CSc2nnc(Br)n2-c2ccc(C3CC3)c3ccccc23)c(Cl)c1)C(=O)O", "changes": "RT-Y181C", "method": "nucleotide incorporation / radiometric", "result": "0.05–0.1 µM"}
{"structure": "Nc1ncnc2c1ncn2C1OC(COP(=O)(O)OC2CC(COP(=O)(O)OC3C(O)C(CO)OC3n3cnc4c(N)ncnc43)OC2n2cnc3c(N)ncnc32)CC1O", "strain or isolate": "IIIB", "result": ">10 µM"}
{"structure": "CCc1cc(C2CC2)ccc1-n1c(Br)nnc1SCC(=O)Nc1ccc(C(=O)O)cc1Cl", "method": "nucleotide incorporation / radiometric", "result": "<0.05 µM"}
{"structure": "CCN1c2ncc(CCOc3cccc4c3CCNC4=O)cc2C(=O)N(C)c2cccnc21", "strain or isolate": "IIIB", "method": "nucleotide incorporation / radiometric", "result": "<0.05 µM"}

A second listing of 6 rows from above:

structure | strain or isolate | changes | method | result
CC(C)(O/N=C(/C(=O)N[C@@H]1C(=O)N2C(C(=O)[O-])=C(C[n+]3ccccc3)CS[C@H]12)c1csc(N)n1)C(=O)O |  |  | radiometric | >100 µg/mL
N#Cc1cc(Cl)cc(Oc2cc(OCc3nc4cccc(Cl)c4o3)ccc2Cl)c1 |  |  | nucleotide incorporation / radiometric | <20 µM
Cc1cn([C@H]2C[C@H](F)C(COP(=O)([O-])OP(=O)([O-])OC[C@H]3O[C@@H](n4cc(C)c(=S)[nH]c4=O)C[C@@H]3F)O2)c(=O)[nH]c1=S |  |  | RT activity / ELISA | 0.9 µM
COC(=O)[C@H](CC(C)C)NC(=O)c1ccc(NC(=O)CSc2nnc(Br)n2-c2ccc(C3CC3)c3ccccc23)c(Cl)c1 |  | RT-Y188L | nucleotide incorporation / radiometric | 0.05–0.1 µM
CCN1c2ncc(CCOc3cccc4c3CNC(=O)N4)cc2C(=O)N(C)c2cccnc21 | IIIB | RT-K103N Y181C | nucleotide incorporation / radiometric | >0.1 µM
Cc1ccc(C2=CC(c3cnc(C(C)C)cn3)SC(N)=N2)cc1 |  |  | RT activity / ELISA / absorbance | >100 µM